Laboratory results: US20260234738A1

Experiments:
[1] = target: SARS-COV-2 RBD-MMH (SARS-CoV-2); assay: SPR; details: remark: other sources report otherwise
[2] = target: UNMODIFIED-SARS-CoV-2 Spike Protein (RBD)([…]).mmH (SARS-CoV-2); assay: Luminex bead binding, antibody supernatant; details: remark: other sources report otherwise

Binder | Kd [1] [µM] | t½ [1] [min] | binding signal (MFI) [2] [MFI] | koff [1] [s⁻¹] | kon [1] [M⁻¹ s⁻¹]
mAb10913 (antibody) heavy: EVQLVESGGGLVQPGGSLRLSCAASGFTFRNYEMNWVRQAPGKGLEWVSYITSSGSTMYYADSVKGRFTISRDNAKNSLYLQMNSLRAEDTAVYYCARDGFYYYYAMDVWGQGTTVTVSSASTKGPSVFPLAPSSKSTSGGTAALGCLVKDYFPEPVTVSWNSGALTSGVHTFPAVLQSSGLYSLSSVVTVPSSSLGTQTYICNVNHKPSNTKVDKKV[human IgG1 Fc left out] light: QSVLTQPPSVSAAPGQKVTISCSGSSSNIGNNYVSWYQQLPGTAPKLLIYDNNKRPSGIPDRFSGSKSGTSATLGITGLQTGDEADYYCGTWDSSLSVGRVFGTGTKVTVLGQPKAAPSVTLFPPSSEELQANKATLVCLISDFYPGAVTVAWKADSSPVKAGVETTTPSKQSNNKYAASSYLSLTPEQWKSHRSYSCQVTHEGSTVEKTVAPTECS | 0.0464 | 0.5 | 31700 |  | 
mAb10957 (antibody) heavy: EVQLVESGGGLVQPGGSLRLSCAASGVTVSSNYMSWVRQAPGKGLEWVSVIYSGGSTFYADSVKGRFTISRDNSKNTLFLQMNSLRIEDTAVYYCARDLGPYGMDVWGQGTTVTVSSASTKGPSVFPLAPSSKSTSGGTAALGCLVKDYFPEPVTVSWNSGALTSGVHTFPAVLQSSGLYSLSSVVTVPSSSLGTQTYICNVNHKPSNTKVDKKV[human IgG1 Fc left out] light: DIQLTQSPSFLSASVGDRVTITCRASQGISSYLAWYQQKPGKAPKLLIYAASTLQSGVPSRFSGSGSGTQFILTISSLQPEDFATYYCQQLNSYPGFTFGPGTKVDIKRTVAAPSVFIFPPSDEQLKSGTASVVCLLNNFYPREAKVQWKVDNALQSGNSQESVTEQDSKDSTYSLSSTLTLSKADYEKHKVYACEVTHQGLSSPVTKSFNRGEC | 0.00235 | 36.7 | 20900 |  | 
mAb10914 (antibody) heavy: EVQLVESGGGLVQPGGSLRLSCAASGLIVSRNYMIWVRQAPGKGLEWVSVIYSGGSTFYADSVKGRFTISRHNSKNTLYLQMNSLRAEDTAVYYCARDLGTGGMDVWGQGTTVTVSSASTKGPSVFPLAPSSKSTSGGTAALGCLVKDYFPEPVTVSWNSGALTSGVHTFPAVLQSSGLYSLSSVVTVPSSSLGTQTYICNVNHKPSNTKVDKKV[human IgG1 Fc left out] light: DIQLTQSPSFLSASVGDRVTITCWASQGISSYLAWYQQKPGKAPKLLIYAASTLQSGVPSRFSGSGSGTEFTLTISSLQPEDFATYYCQQLNSYPLTFGGGTKVEIKRTVAAPSVFIFPPSDEQLKSGTASVVCLLNNFYPREAKVQWKVDNALQSGNSQESVTEQDSKDSTYSLSSTLTLSKADYEKHKVYACEVTHQGLSSPVTKSFNRGEC | 0.0389 | 0.8 | 36000 |  | 
mAb10932 (antibody) heavy: EVQLVESGGGLVQSGGSLRLSCAASGLTVSSNYMSWVRQAPGKGLEWVSVIYSGGSTFYSDSVKGRFTISRHNSKNTLYLQMNSLRAEDTAVYYCARARGDAFDIWGQGTMVTVSSASTKGPSVFPLAPSSKSTSGGTAALGCLVKDYFPEPVTVSWNSGALTSGVHTFPAVLQSSGLYSLSSVVTVPSSSLGTQTYICNVNHKPSNTKVDKKV[human IgG1 Fc left out] light: DIQMTQSPSSLSASVGDRVTITCQASQGISNYLNWYQQKPGKAPKLLISDASNLETGVPSRFSGSGSGTDFTFTISSLQPEDIATYYCQQYDNLRFFTFGPGTKVDIKRTVAAPSVFIFPPSDEQLKSGTASVVCLLNNFYPREAKVQWKVDNALQSGNSQESVTEQDSKDSTYSLSSTLTLSKADYEKHKVYACEVTHQGLSSPVTKSFNRGEC | 0.00148 | 92 | 34000 |  | 
mAb10986 (antibody) heavy: EVQLVESGGGLVQPGGSLRLSCAASEFTVSSNYMSWVRQAPGKGLEWVSVIYSGGSTFYADSVKGRFTISRDNSKNTLYLQMNSLRAEDTAVYYCARALPYGDLHFDYWGQGTLVTVSSASTKGPSVFPLAPSSKSTSGGTAALGCLVKDYFPEPVTVSWNSGALTSGVHTFPAVLQSSGLYSLSSVVTVPSSSLGTQTYICNVNHKPSNTKVDKKV[human IgG1 Fc left out] light: QSVLTQPPSVSGAPGQRVTISCTGSSSNIGTGYDVHWYQQLPGTAPKLLIYGNTNRPSGVPDRFSGSKSGTSASLAITGLQAEDEADYYCQSYDSSLSDSYVFGTGTKVTVLGQPKAAPSVTLFPPSSEELQANKATLVCLISDFYPGAVTVAWKADSSPVKAGVETTTPSKQSNNKYAASSYLSLTPEQWKSHRSYSCQVTHEGSTVEKTVAPTECS | 0.000797 | 45.2 | 25400 |  | 
mAb10967 (antibody) heavy: EVQLVESGGGLVQPGGSLRLSCAASGFTVSSNYMSWVRQAPGKGLEWVSVIYPGGSTFYADSVKGRFTISRDNSKNTLYLQMNSLRAEDTAVYYCARDQRDFAWGQGTLVTVSSASTKGPSVFPLAPSSKSTSGGTAALGCLVKDYFPEPVTVSWNSGALTSGVHTFPAVLQSSGLYSLSSVVTVPSSSLGTQTYICNVNHKPSNTKVDKKV[human IgG1 Fc left out] light: DIQMTQSPSSLSASVGDRVTITCQASQDISNYLNWYQQKPGKAPKLLIYDASNLETGVPSRFSGSGSGTDFTFTISGLQPEDIATYYCQQYDNLPPTFGQGTRLEIKRTVAAPSVFIFPPSDEQLKSGTASVVCLLNNFYPREAKVQWKVDNALQSGNSQESVTEQDSKDSTYSLSSTLTLSKADYEKHKVYACEVTHQGLSSPVTKSFNRGEC | 0.000966 | 107 | 26800 |  | 
mAb10937 (antibody) heavy: QITLKESGPTLVKPTQTLTLTCTFSGFSLSTNVVGVGWIRQPPGKALEWLALIYWNDDKRYSPSLKSRLTITKDTSKNQVVLTMTNMDPVDTATYYCAHGPTGDYFDYWGQGTLVTVSSASTKGPSVFPLAPSSKSTSGGTAALGCLVKDYFPEPVTVSWNSGALTSGVHTFPAVLQSSGLYSLSSVVTVPSSSLGTQTYICNVNHKPSNTKVDKKV[human IgG1 Fc left out] light: [about 100 residues left out][about 120 residues left out] | 0.015 | 2 | 33600 |  | 
mAb11002 (antibody) heavy: EVQLVESGGGLVQPGGSLRLSCAASGFTVSSNYMSWVRQAPGKGLEWVSVIYSGGSTFYADSVKGRFTISRHNSKNTLYLQMNSLRAEDTAVYYCAREGYGMDVWGQGTTVTVSSASTKGPSVFPLAPSSKSTSGGTAALGCLVKDYFPEPVTVSWNSGALTSGVHTFPAVLQSSGLYSLSSVVTVPSSSLGTQTYICNVNHKPSNTKVDKKV[human IgG1 Fc left out] light: [about 100 residues left out][about 120 residues left out] | 0.0793 | 0.5 | 9880 | 0.0254 | 321000
mAb10956 (antibody) heavy: EVQLVESGGGLVQPGGSLRLSCAASGLTVSSNYMSWVRQAPGKGLEWVSVIYSGGSTFYADSVKGRFTISRDNSKNTLYLQMNSLRAEDTAVYYCARDLIKYGMDVWGQGTTVTVSSASTKGPSVFPLAPSSKSTSGGTAALGCLVKDYFPEPVTVSWNSGALTSGVHTFPAVLQSSGLYSLSSVVTVPSSSLGTQTYICNVNHKPSNTKVDKKV[human IgG1 Fc left out] light: DIQMTQSPSSLSASVGDRVTITCQASQDISNYLNWYQQKPGKAPKLLIYDASNLETGVPSRFSGSGSGTDFTFTISSLQPEDIATYYCQQYDNLPPHFGPGTKVDIKRTVAAPSVFIFPPSDEQLKSGTASVVCLLNNFYPREAKVQWKVDNALQSGNSQESVTEQDSKDSTYSLSSTLTLSKADYEKHKVYACEVTHQGLSSPVTKSFNRGEC | 0.0262 | 2.2 | 24600 |  | 
